Compound potency records, mixed from different reports. Data source: NIAID ChemDB in PubChem.

Shared fields: host cell toxicity; cells: C8166; measure: CC50

Blank or dashed fields: not listed here.

compound	method	result
CCCC(=O)O[C@@]12[C@H](OC(=O)/C=C/c3ccc(O)c(OC)c3)[C@@H](C)[C@@]3(O)[C@@H](C=C(CO)C[C@]4(O)C(=O)C(C)=C[C@@H]34)[C@@H]1C2(C)C	MTT	77.84 µM
CC[C@]1(O)[C@@H](C)Cc2cc(OC)c(OC)c(OC)c2-c2c(cc(OC)c(OC)c2OC)[C@@H]1OC(=O)c1cccnc1	MTT	>200 µg/mL
C=C1C(=O)O[C@H]2[C@@H]1[C@H](OC(=O)C(C)C)[C@@H]1[C@@](C)([C@@H](OC(C)=O)CC[C@]1(C)O)[C@H]2O	absorbance	60.66 µM
CCc1cc(-c2ccc(C(F)(F)F)o2)n(-c2ccc3c(c2)nc(-c2cc(C(=O)N(C)C)ccc2O)n3Cc2ccc(=O)[nH]c2)n1	MTT	>23 µM
CC(=O)O[C@H]1C[C@]2(C)[C@H]3[C@H](OC(=O)c4ccccc4)CC[C@]4(CO4)[C@]3(C)[C@@H](OC(C)=O)C[C@]2(C)O[C@]12COC(=O)C2	MTT	>200 µg/mL
CC1=C[C@H]2[C@@]3(O)[C@H](C)[C@@H](O)[C@]4(OC(=O)CCc5ccccc5)[C@H]([C@@H]3C=C(CO)C[C@]2(O)C1=O)C4(C)C	MTT	>200 µM
CC(=O)O[C@H]1C[C@]2(C)O[C@]3(COC(=O)C3)[C@@H](OC(=O)c3ccccc3)C[C@]2(C)[C@H]2[C@H](OC(C)=O)CC[C@]3(CO3)[C@]12C	MTT	>200 µg/mL
CCc1cc(-c2ccc(C)o2)n(-c2ccc3c(c2)nc(-c2cc(C(=O)N(C)C)ccc2O)n3Cc2ccc(=O)[nH]c2)n1	MTT	>23 µM
O=C(NNCCO)c1[nH]c2ccc(Cl)cc2c1S(=O)(=O)c1ccccc1	MTT	>100 µM
CCCCCCCCCCCCCCCCCCCC(=O)O[C@@H]1[C@@H](C)[C@@]2(O)[C@@H](C=C(CO)C[C@]3(O)C(=O)C(C)=C[C@@H]23)[C@@H]2C(C)(C)[C@]12O	MTT	>200 µM
CCOP(=O)(N[C@@H](C)C(=O)OCc1ccccc1)OC[C@H]1O[C@@H](n2cc(C)c(=O)[nH]c2=O)C[C@@H]1N=[N+]=[N-]	-	>100 µM
CC1=C[C@H]2[C@@]3(O)[C@H](C)[C@@H](OC(=O)CCCCCCCCBr)[C@]4(OC(=O)CCCCCCCCBr)[C@H]([C@@H]3C=C(CO)C[C@]2(O)C1=O)C4(C)C	MTT	74 µM
Cc1ccc(S(=O)(=O)c2c(C(=O)NCCO)[nH]c3ccc(Cl)cc23)cc1	MTT	>100 µM
CCCCCCOP(=O)(N[C@H](C(=O)OC)C(C)C)OC[C@H]1O[C@@H](n2cc(C)c(=O)[nH]c2=O)C[C@@H]1N=[N+]=[N-]	-	>100 µM
CCN(CC)P(=O)(OC[C@H]1O[C@@H](n2cc(C)c(=O)[nH]c2=O)C[C@@H]1N=[N+]=[N-])N(CC)CC	-	>100 µM
CC1=C[C@H]2[C@@]3(O)[C@H](C)[C@@H](OC(=O)CCc4ccccc4)[C@]4(OC(=O)CCc5ccccc5)[C@H]([C@@H]3C=C(CO)C[C@]2(O)C1=O)C4(C)C	MTT	26.34 µM
COc1cc([C@H]2O[C@@H](c3ccc(O)c(OC)c3)[C@@H](CO)[C@@H]2C)ccc1O	MTT	>200 µg/mL
Cc1cn([C@H]2C[C@H](N=[N+]=[N-])[C@@H](COP(=O)(N[C@@H](C)C(=O)OCc3ccccc3)OCC(Cl)(Cl)Cl)O2)c(=O)[nH]c1=O	-	>100 µM
CCCOP(=O)(N[C@H](C(=O)OC)C(C)C)OC[C@H]1O[C@@H](n2cc(C)c(=O)[nH]c2=O)C[C@@H]1N=[N+]=[N-]	-	>100 µM
C=C1C(=O)O[C@H]2[C@@H]1[C@H](OC(=O)C(C)C)[C@@H]1[C@@](C)([C@@H](OC(C)=O)CC[C@]1(C)O)[C@H]2OC(C)=O	absorbance	50.67 µM
O=C(NCCO)c1[nH]c2ccc(Cl)cc2c1S(=O)(=O)c1ccccc1	MTT	>100 µM
CCOP(=O)(NCC(=O)OC)OC[C@H]1O[C@@H](n2cc(C)c(=O)[nH]c2=O)C[C@@H]1N=[N+]=[N-]	-	>100 µM
CN1CCN(c2c(F)cc3c(=O)c(C(=O)O)cn4c3c2SCC4)CC1	-	500 µM
C/C=C(/C)C(=O)O[C@H]1c2cc(OC)c(OC)c(OC)c2-c2c(cc(OC)c(OC)c2OC)C[C@H](C)[C@@]1(O)CC	MTT	>200 µg/mL
CCc1cc(-c2ccc(C)o2)n(-c2ccc3c(c2)nc(-c2cc(C(=O)O)ccc2O)n3Cc2ccc(=O)[nH]c2)n1	MTT	>46 µM
NC(=O)c1[nH]c2ccc(Cl)cc2c1S(=O)(=O)c1ccccc1	MTT	>100 µM
CCc1cc(-c2ccc(C)o2)n(-c2ccc3c(c2)nc(-c2ccc(C(N)=O)cc2)n3Cc2cccnc2)n1	MTT	19 µM
CCCCCCOP(=O)(N[C@H](C(=O)OC)C(C)C)OC[C@H]1O[C@@H](n2cc(C)c(=O)[nH]c2=O)C[C@@H]1N=[N+]=[N-]	-	>100 µM
Cc1cc(C)cc(Sc2c(C(=O)NCCO)[nH]c3ccc(Cl)cc23)c1	MTT	>100 µM
CCc1cc(-c2ccc(C)o2)n(-c2ccc3c(c2)nc(-c2cc(F)ccc2O)n3Cc2ccc(=O)[nH]c2)n1	MTT	>16 µM
COC(=O)C[C@H](NP(=O)(N[C@@H](CC(=O)OC)C(=O)OC)OC[C@H]1O[C@@H](n2cc(C)c(=O)[nH]c2=O)C[C@@H]1N=[N+]=[N-])C(=O)OC	-	>100 µM
CC(=O)O[C@@H]1CC[C@]2(CO2)[C@]2(C)[C@@H](OC(C)=O)[C@H](OC(C)=O)[C@]3(C)O[C@]4(COC(=O)C4)[C@@H](OC(=O)c4ccccc4)C[C@]3(C)[C@@H]12	MTT	>200 µg/mL

Conditions beyond the fields shown may differ between rows. CCn: concentration that lowers growth or viability of the cells by n%.